According to patent publication US20110283604A1, “BIODEGRADATION OF RENEWABLE HYDROCARBON FUEL BLENDS” (BUTAMAX(TM) ADVANCED BIOFUELS LLC, priority 2010, published 2011):

What was measured:
[1] = system: soil-groundwater slurries; experiment: Aerobic microcosm biodegradation of BTEX, isobutanol and ethanol
[2] = system: soil-groundwater slurries; experiment: Anaerobic microcosm biodegradation (nitrate-reducing to methanogenic); conditions: for time to complete biodegradation: lower concentration (68 μM); for day by which concentration had decreased below the analytical detection limit: data not shown

SMILES: CCO [ethanol, reference compound]
- impact of alcohol on BTEX biodegradation ([1]; comparison microcosms (Treatments 4, 5 and 6), aerobic): greater adverse impacts on BTEX biodegradation than isobutanol
- time to degradation below the analytical detection limit ([2]; Treatments 4 and 14, sulfate reducing conditions, ethanol 11,000 μM): approximately 60 days

SMILES: CC(C)CO [isobutanol]
- time to degradation of re-spiked alcohol ([2]; Treatment 2 re-spiked to 3,400 μM at 88 days, after depletion of sulfate (methanogenic conditions)): ≤ 30 days
- time to degradation below detection limits ([2]; Treatment 6, nitrate-reducing, higher concentration (3,400 μM)): ≤ 16 days
- time to degradation below the analytical detection limit ([2]; iron-amended treatment, higher concentration): ≤ 80 days
- time to complete biodegradation ([2]; iron-amended treatment): ≤ 25 days
- time to complete biodegradation ([2]; unamended, nitrate-amended and sulfate-amended treatments): ≤ 15 days

SMILES: CC(C)C(=O)O [isobutyric acid]
- fate in samples taken after 82 days ([1]; Treatment 3, aerobic (data not shown)): further degraded
- concentration by day 48 ([1]; Treatment 4, aerobic): 100 µM
- day by which concentration had decreased below the analytical detection limit ([2]; Treatment 3 (unamended, lower concentration)): ≤ 160 days
- day by which concentration had decreased below the analytical detection limit ([2]; Treatment 13 (sulfate reducing, lower concentration)): ≤ 48 days
- accumulation as biodegradation intermediate ([2]; all treatments except high concentration nitrate-amended): near (with a factor of approximately 2) stoichiometric quantities
- accumulation as biodegradation intermediate ([2]; high concentration nitrate-amended treatment): 5%
